A mixed list of measured activities; the numbers were collected in NIAID ChemDB.

Common to all: growth or infection tests; agent: HIV-1; cells: CEM + CEM-SS; endpoint: EC50

Blank or dashed fields: not listed here. Conditions beyond the fields shown may differ between rows. ECn is the concentration giving n% inhibition of infection, replication or growth.

compound,strain,changes,read by,value
Cc1occc1C(=S)Nc1ccc(Cl)c(/C=N/OC(C)(C)C)c1,NL4-3 (RT V179D),RT-V179D,cytopathic effect / XTT,0.7 µM
Nc1ccn([C@@H]2CS[C@H](CO)O2)c(=O)n1,LAI-XXBRU WT,,plaque count,0.06 µM
Fc1cccc(F)c1C1SCc2nc3ccccc3n21,RF,,cytopathic effect / XTT,1.28 µM
Cc1cn([C@H]2C[C@H](N=[N+]=[N-])[C@@H](CO)O2)c(=O)[nH]c1=O,4XAZT/Y181C (RT D67N K70R Y181C T215Y K219Q),RT-D67N K70R Y181C T215Y K219Q,cytopathic effect / XTT,0.1 µM
CCCc1cc(=O)oc2c3c(c4c(c12)OC(C)(C)C=C4)O[C@H](C)[C@@H](C)[C@@H]3O,NL4-3,RT-V106I,XTT,0.2 µM
Cc1cn([C@H]2C[C@H](N=[N+]=[N-])[C@@H](CO)O2)c(=O)[nH]c1=O,R5X4 WT,,plaque count,0.04 µM
Cc1ccnc2c1NC(=O)c1cccnc1N2C1CC1,HEPT-resistant (RT P236L),RT-P236L,cytopathic effect / XTT,0.02 µM
CCCCCCCCCCCCSCC(COP(=O)([O-])OCC[N+](C)(C)C)OCCCCCCCCO,LAI-XXBRU WT,,plaque count,0.19 µM
CCc1c(C(=O)c2cc(C)cc(C)c2)n(CC2CC=CC2)c(=O)[nH]c1=O,NL4-3,,cytopathic effect / XTT,0.002 µM
Cc1cn([C@H]2C[C@H](N=[N+]=[N-])[C@@H](CO)O2)c(=O)[nH]c1=O,McK,,cytopathic effect / XTT,0.006 µM
CCCCS1(=O)=NC(=O)Nc2ccccc21,IIIB,,cytopathic effect / XTT,>280 µM
Fc1cccc(F)c1C1SCc2nc3ccccc3n21,IIIB,,cytopathic effect / XTT,0.6 µM
C/C=C/CSc1cc(NC(=S)c2ccsc2C)ccc1Cl,Thiazolobenzimidazole-resistant (RT V108I),RT-V108I,cytopathic effect / XTT,0.9 µM
Cc1ccnc2c1NC(=O)c1cccnc1N2C1CC1,NL4-3,RT-Y188C,XTT,3.2 µM
C1=Nc2ccccc2SN1,IIIB HEPT-resistant (RT P236L),RT-P236L,cytopathic effect / XTT,5 µM
CC1=C(C(=O)N(C)c2ccc(Cl)c(C(=O)OC(C)C)c2)SCCO1,RF,,cytopathic effect,>100 µM
Cc1ccc(C(=O)Nc2ccc(S(=O)(=O)O)c3cc(S(=O)(=O)O)cc(S(=O)(=O)O)c23)cc1NC(=O)c1cccc(NC(=O)Nc2cccc(C(=O)Nc3cc(C(=O)Nc4ccc(S(=O)(=O)O)c5cc(S(=O)(=O)O)cc(S(=O)(=O)O)c45)ccc3C)c2)c1,RF,,cytopathic effect / XTT,>50 µM
Cc1cn([C@H]2C[C@H](N=[N+]=[N-])[C@@H](CO)O2)c(=O)[nH]c1=O,IIIB,RT-K103N Y181C,cytopathic effect / XTT,0.01 µM
Cc1cn([C@H]2C[C@H](N=[N+]=[N-])[C@@H](CO)O2)c(=O)[nH]c1=O,SKI,,cytopathic effect / XTT,0.0018 µM
Cc1cn([C@@H]2O[C@H](CO[Si](C)(C)C(C)(C)C)[C@@]3(OS(=O)(=O)C=C3N)[C@H]2O[Si](C)(C)C(C)(C)C)c(=O)[nH]c1=O,UC82-R (RT-Y181C),RT-Y181C,cytopathic effect / XTT,>10 µM
CC(C)=CCN1Cc2cc(Cl)cc3[nH]c(=S)n(c23)C[C@@H]1C,PM16,,cytopathic effect / MTT,0.652 µM
C/C=C/CSc1cc(NC(=S)c2ccsc2C)ccc1Cl,Costatolide-resistant (RT L100I T139I),RT-L100I T139I,XTT,>2 µM
CCc1c(Sc2ccccn2)n(COCc2ccccc2)c(=O)[nH]c1=O,IIIB,RT-V108I,cytopathic effect / XTT,0.8 µM
CCCc1cc(=O)oc2c3c(c4c(c12)OC(C)(C)C=C4)O[C@@H](C)[C@H](C)[C@@H]3O,Oxathiin carboxanilide-resistant RT L100I,RT-L100I,XTT,>270 µM
Cc1ccnc2c1NC(=O)c1cccnc1N2C1CC1,NL4-3,RT-A98G,cytopathic effect / XTT,0.2 µM
Cc1cn([C@H]2C[C@H](N=[N+]=[N-])[C@@H](CO)O2)c(=O)[nH]c1=O,NL4-3,,XTT,0.001 µM
CN1N=C(N)c2cn([C@@H]3O[C@H](COP(=O)(O)O)[C@@H](O)[C@H]3O)c3ncnc1c23,IIIB,,XTT,0.02 µM
Cc1ccnc2c1NC(=O)c1cccnc1N2C1CC1,NL4-3,,cytopathic effect / XTT,0.02 µM
O=S1(c2ccccc2)=NC(=S)Nc2ccccc21,RF,,cytopathic effect / XTT,1.39 µM